Experimental data published in paper PMC6770890.
Where a protein sequence is shown, tags need not be part of it.

Molecular target: T1, H-NS (UniProt A0A0F6B244)
T1 sequence (looked up): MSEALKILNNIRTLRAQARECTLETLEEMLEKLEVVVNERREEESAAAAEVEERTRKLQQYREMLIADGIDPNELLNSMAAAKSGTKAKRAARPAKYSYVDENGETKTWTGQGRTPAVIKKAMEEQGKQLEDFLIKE
Experiment: EMSA
Settings: 20 mM Tris-HCl, 1 mM EDTA, 100 ug/mL BSA, 1 mM DTT, 10% glycerol, 80 mM NaCl, 25 C, 30 min; 50 ng DNA in 20 uL, protein 0-9.76 uM; pH 7.5 or 5.5 in Fig. 5B; recombinant protein; residues 1-137; protein details: N-terminal 6xHis; probe letters rebuilt from the primers and the genome

“CGACAGACGGTGAGTATCCCCCCTGCCAATAAGCTCTTTTTTGTGCGGTGCCTCAAGGAAAATTTAAGTTGAGATAATTAAAACGTGTGCTTAATAAAGCGTAATTTTGAATTCCTTACATTCCTGGCTATTGCACAACTGAATTTATCGCTCTATTATTAGCTCAACAAACCACCCCAATATAAGTTTGAGATTACTACAATGAGCGAAGCACTTAAAATTCTGAACAACATCCGTACTCTTCGTGCGCAGGCAAGAGAATGTACTCTGGAAACGCTTGAAGAAATGCTGGAAAAATTAGAAGTTGTCGTTAATGAGCGTCGTGAAGAAGAAAGCGCTGCTGCTGCTGAAGTGGAAGAACGCA (double strand) [hns promoter (Phns)]”: binds.
